Pooled drug test results. Numbers come from NIAID ChemDB, via PubChem.

Common to all: tests in culture; species: HIV-1; cells: PBMC; read-out: EC50

Blank or dashed fields: not listed here. Rows are shuffled and stem from different studies. ECn: concentration that inhibits the pathogen or its effect by n%.

compound	strain	mutations	read by	result
Cc1cn([C@H]2C=C[C@@H](CO)O2)c(=O)n(CCCCCCN2CCN(CCNC(=S)Nc3ccc(Br)cn3)CC2)c1=O	IIIB		RT activity	70 µM
O=C(O)CCC(CCC(=O)O)(CCC(=O)O)NC(=O)CCC(CCC(=O)NC(CCC(=O)O)(CCC(=O)O)CCC(=O)O)(CCC(=O)NC(CCC(=O)O)(CCC(=O)O)CCC(=O)O)NC(=O)CCCOC(=O)C1(C(=O)OCCCC(=O)NC(CCC(=O)NC(CCC(=O)O)(CCC(=O)O)CCC(=O)O)(CCC(=O)NC(CCC(=O)O)(CCC(=O)O)CCC(=O)O)CCC(=O)NC(CCC(=O)O)(CCC(=O)O)CCC(=O)O)C2c3cc4c5c6c3-c3c(cc7c8c3C6C3c6c-5c(cc5ccc9cc(c-8c3c9c65)C7)C4)C21	xxBRU		cytopathic effect	0.19 µM
Cc1nc2ccccc2nc1COC(=O)c1ccc(O)cc1	BaL		RT activity	>100 µM
COC(=O)[C@H](C)NP(=O)(OC[C@@H]1C=C[C@H](n2cc(C)c(=O)[nH]c2=O)O1)Oc1ccc(Cl)cc1	A17	RT-Y181C	p24	0.079 µM
O=c1ccn(CC(F)(F)C(F)(F)CO)c(=O)[nH]1	LAI		RT activity	>100 µM
O=C(O)CN(CCCN(CCN(CC(=O)O)CC(=O)O)Cc1cnc2c(O)cccc2c1)CC(=O)O	B-92US026 Primary isolate		RT activity	30 µM
Nc1nccc2c1ncn2[C@@H]1O[C@H](CO)[C@@H](O)[C@H]1O	A012 PRE-AZT		p24	0.144 µM
Cc1cn([C@H]2C[C@H](N=[N+]=[N-])[C@@H](CO)O2)c(=O)[nH]c1=O	KM018		p24 / ELISA	0.0377 µg/mL
COc1ccc(C(=O)OCc2nc3ccccc3nc2C)c(OC)c1OC	BaL		RT activity	>100 µM
Nc1ncnc2c1ncn2[C@@H]1C=C(CO)[C@@H](O)[C@H]1O	18601 unpaired		p24	0.0534 µM
COc1cc(C(=O)OCc2nc3ccccc3nc2C)cc(OC)c1OC	BaL		RT activity	>100 µM
Cc1ccc(-c2c3nc(c(-c4ccc(C)cc4)c4ccc([nH]4)c(-c4ccc(C)cc4)c4nc(c(-c5ccc(C)cc5)c5ccc2[nH]5)C=C4)C=C3)cc1	LAV			0.754 µM
COC(=O)[C@H](C)NP(=O)(OC[C@@H]1C=C[C@H](n2cc(C)c(=O)[nH]c2=O)O1)Oc1cc(Cl)ccc1Cl	IIIB WT		p24	0.001 µM
Nc1ccn([C@@H]2O[C@H](CO)C=C2F)c(=O)n1	BRU		RT activity	<8 µM
CCN(CC)C(=O)OC[C@@H]1CN(C(=O)c2ccccc2)CCN1C(=O)C(=O)c1c[nH]c2nccc(OC)c12	LAI		RT activity	>125 µM
Cc1ccc(-c2ccc3c(c2)C=C(C(=O)Nc2ccc(C[N+](C)(C)C4CCOCC4)cc2)CCC3)cc1	CM4 CLADE C		p24	<1 µM
CCOC(=O)[C@H](C)NP(=O)(OCC(F)(F)C(F)(F)Cn1cnc2c(N)ncnc21)Oc1ccccc1	LAI		RT activity	31 µM
C[n+]1ccc(-c2c3nc(c(-c4cc[n+](C)cc4)c4ccc([nH]4)c(-c4cc[n+](C)cc4)c4nc(c(-c5cc[n+](C)cc5)c5ccc2[nH]5)C=C4)C=C3)cc1	LAV			3.23 µM
CCN(CC)C(=O)OC[C@H]1CN(C(=O)c2ccccc2)CCN1C(=O)C(=O)c1c[nH]c2nccc(OC)c12	LAI		RT activity	>125 µM
COC(=O)[C@H](C)NP(=O)(OC[C@@H]1C=C[C@H](n2cc(C)c(=O)[nH]c2=O)O1)Oc1ccccc1Br	IIIB WT		p24	0.002 µM
Cc1cn([C@H]2C=C[C@@H](CO)O2)c(=O)[nH]c1=O	IIIB		RT activity	0.05 µM
COP(=O)(c1cc(C)cc(CCC#N)c1)c1c(C(N)=O)[nH]c2ccc(Cl)cc12	BH10			0.0004 µM
Cc1cccc(-c2c3nc(c(-c4cccc(C)c4)c4ccc([nH]4)c(-c4cccc(C)c4)c4nc(c(-c5cccc(C)c5)c5ccc2[nH]5)C=C4)C=C3)c1	LAV			0.05 µM
Cc1cn([C@H]2C[C@H](N=[N+]=[N-])[C@@H](CO)O2)c(=O)[nH]c1=O	89BZ167		RT activity	0.0026 µM
Cc1cn(CC(F)(F)C(F)(F)CO)c(=O)[nH]c1=O	LAI		RT activity	>100 µM
Cc1cccc(C(=O)OCc2nc3ccccc3nc2C)c1O	89BZ167		RT activity	>100 µM
CC(=O)N1CCC(C(=O)N(CCCN2CCC(Cc3ccc(C(N)=O)cc3)CC2)c2ccc(C)c(Cl)c2)CC1	R5-18 Clinical isolate		p24	0.00226 µM
COc1cc(OC)cc(C(=O)OCc2nc3ccccc3nc2C)c1	89BZ167		RT activity	>100 µM
CCOC(=O)[C@H](C)NP(=O)(OCC(F)(F)C(F)(F)Cn1cnc2c(=O)[nH]c(N)nc21)Oc1ccccc1	LAI		RT activity	>100 µM
COC(=O)c1ccc(C(=O)OCc2nc3ccccc3nc2C)cc1	89BZ167		RT activity	>100 µM
Nc1ccn(CC(F)(F)C(F)(F)C(F)(F)CO)c(=O)n1	LAI		RT activity	>100 µM

2 of the rows above, restated:

| compound | strain | mutations | read by | result |
|---|---|---|---|---|
| Cc1ccc(-c2ccc3c(c2)C=C(C(=O)Nc2ccc(C[N+](C)(C)C4CCOCC4)cc2)CCC3)cc1 | CM4 CLADE C |  | p24 | <1 µM |
| Nc1ncnc2c1ncn2[C@@H]1C=C(CO)[C@@H](O)[C@H]1O | 18601 unpaired |  | p24 | 0.0534 µM |